Anti-infective test results gathered from many reports (values: NIAID ChemDB through PubChem).

A number after MIC or MFC names an inhibition level or a share of isolates. ICn is the concentration giving n% inhibition. Lines come from different laboratories, so protocols vary. ECn: concentration that inhibits the pathogen or its effect by n%. Fold resistance: result on the changed form divided by that on wild type. Percent inhibition refers to the dose given; in toxicity tests it is the harm to the cells.

CCOC(=O)Nc1cc2c(c(N)n1)N=C(c1ccc(N=[N+]=[N-])cc1)CO2 ; test: culture ; species: Encephalitozoon intestinalis ; cells: RK-13 ; endpoint: inhibition ; tested at: 0.1 µg/mL ; value: 70.8%
COc1ccccc1C(=O)Nc1nnc(NCc2ccc3c(c2)OCO3)s1 ; test: target ; species: Human cytomegalovirus ; target: Polymerase ; endpoint: IC50 ; value: >25 µM
CCOC(=O)Nc1cc2c(c(N)n1)N=C1c3ccccc3CCC1O2.Cl.Cl ; test: culture ; species: Encephalitozoon intestinalis ; cells: RK-13 ; endpoint: inhibition ; tested at: 1 µg/mL ; value: 58.3%
CCOc1ccc2ccccc2c1C(=O)Nc1nnc(NCC(c2ccccc2)c2ccccc2)s1 ; test: target ; species: Human cytomegalovirus ; target: Polymerase ; endpoint: IC50 ; value: <25 µM
CC(C)=CCN1c2cc(Cl)cc3[nH]c(=S)n(c23)C[C@@H]1C ; test: culture ; species: HIV-1 ; changes: RT-M41L T215Y K103N ; cells: MT-4 ; endpoint: EC95 ; value: 0.8 µM
Cc1cn([C@H]2C=C[C@@H](COP(=O)(O)OP(=O)(O)OP(=O)(O)O)O2)c(=O)[nH]c1=O ; test: target ; species: HIV ; changes: RT-N137A ; target: Reverse transcriptase ; method: nucleotide incorporation / radiometric ; endpoint: fold resistance ; value: 1.1
N#Cc1ccc(C(=O)Nc2nnc(NCc3ccc4c(c3)OCO4)s2)cc1 ; test: target ; species: Human cytomegalovirus ; target: Polymerase ; endpoint: IC50 ; value: >25 µM
C#CC[C@@H](C(=O)N[C@H](/C=C/C(=O)OCC)C[C@@H]1CCNC1=O)n1cccc(NC(=O)c2cc(C)on2)c1=O ; test: culture ; species: Rhinovirus ; strain: Serotype 31 ; cells: H1-HELA ; method: cytopathic effect / XTT ; endpoint: EC50 ; value: 0.039 µM
COc1ccc2cc3[n+](cc2c1OC)CCc1cc2c(cc1-3)OCO2 ; test: culture ; species: Vittaforma corneae ; cells: RK-13 ; endpoint: inhibition ; tested at: 0.001 µg/mL ; value: 100%
CC[C@H]1C(=O)Nc2ccc(F)cc2N1C(=O)OC(C)C ; test: target ; species: HIV ; changes: RT-N137T ; target: Reverse transcriptase ; method: nucleotide incorporation / radiometric ; endpoint: IC50 ; value: 0.03 µM
CCO/N=C/c1ccc(OCCC2CCN(c3ccc(C)nn3)CC2)cc1 ; test: culture ; species: Rhinovirus ; strain: 16/60 (ICAM-1 receptor group 4) ; cells: KB ; method: neutral red ; endpoint: EC50 ; value: 0.022 µM
CCOc1ccc2ccccc2c1C(=O)Nc1nnc(NCC(C)(C)C)s1 ; test: target ; species: Human cytomegalovirus ; target: Polymerase ; endpoint: IC50 ; value: >25 µM
Cc1cn([C@@H]2O[C@H](CO[Si](C)(C)C(C)(C)C)C3(OS(=O)(=O)C=C3N)[C@H]2O[Si](C)(C)C(C)(C)C)c(=O)n(C)c1=O ; test: target ; species: HIV ; changes: RT-N137Y ; target: Reverse transcriptase ; method: nucleotide incorporation / radiometric ; endpoint: IC50 ; value: 0.3 µM
O=C(Nc1nnc(NCCNc2ccccc2)s1)c1c(Cl)cccc1Cl ; test: target ; species: Human cytomegalovirus ; target: Polymerase ; endpoint: IC50 ; value: >25 µM
COc1ccc(C)cc1NCc1cnc2nc(N)nc(N)c2c1C ; test: culture ; species: Encephalitozoon intestinalis ; cells: RK-13 ; endpoint: inhibition ; tested at: 0.01 µg/mL ; value: 41.6%
O=C(/C=C/c1ccccc1Cl)Nc1nnc(NC2CCCCCC2)s1 ; test: target ; species: Human cytomegalovirus ; target: Polymerase ; endpoint: IC50 ; value: >25 µM
C[C@H](Cc1ccc(O)c(O)c1)[C@@H](C)Cc1ccc(O)c(O)c1 ; test: culture ; species: Candida albicans ; strain: CCC 127-2000 ; method: broth dilution ; endpoint: MIC80 ; value: 250 µg/mL
COc1ccc(OC)c(NCc2cnc3nc(N)nc(N)c3c2C)c1 ; test: culture ; species: Encephalitozoon intestinalis ; cells: RK-13 ; endpoint: inhibition ; tested at: 1 µg/mL ; value: 65.8%